Results of unrelated studies side by side (data: NIAID ChemDB).

Shared fields: growth or infection tests; species: Mycobacterium tuberculosis

MIC bound: limit read from a one-dose screen. Conditions beyond the fields shown may differ between rows. Fold resistance: result on the changed form divided by that on wild type. ECn: concentration that inhibits the pathogen or its effect by n%. MIC50, MIC90 and the like: level of inhibition, or share of isolates inhibited. a–b is a range or a potency band. An empty or dashed field is not shown. Percent inhibition refers to the dose given; in toxicity tests it is the harm to the cells.

compound,setting,cells,measure,dose,strain or isolate,read by,mutations,value
CC(=O)C(CC(=O)Nc1cccc2ccccc12)C(=O)Nc1cccc2ccccc12,,,inhibition,30 µg/mL,H37Rv,,,0%
O=C1c2ccccc2C(=O)c2cc(C[P+](c3ccccc3)(c3ccccc3)c3ccccc3)ccc21,,,MIC,,FJ05120,resazurin,Multidrug-resistant,1 µg/mL
CCCCS(=O)(=O)Nc1ccc2[nH]c(C#N)c(C)c2c1,,,MIC90,,DRM167 32x11,resazurin,G240S DG167-resistant,>100 µM
COc1ccc(-c2cs/c(=N\NC(=O)COc3cnccn3)n2CC(C)C)cc1,,,MIC,,H37Rv,,,5.8 µg/mL
CCOC(=O)Nc1cc2[nH]c(=O)c(-c3ccccc3)nc2c(NC(c2ccccc2)c2ccccc2)n1,,,EC50,,H37Rv,,,>12.5 µg/mL
CCOc1ccc(-n2c(-c3ccc(F)cc3)cs/c2=N\NC(=O)COc2cnccn2)cc1,,,MIC,,H37Rv,,,10.2 µg/mL
COc1cc(C2c3cc4c(cc3C(OC(C)=O)C3COC(=O)C23)OCO4)cc(OC)c1OC.COc1cc(C2c3cc4c(cc3C(OC(C)=O)C3COC(=O)C23)OCO4)cc(OC)c1OC,,,MIC,,H37Rv,BACTEC,,≥128 µg/mL
CCOC(=O)Nc1cc(NC(O)/C(=C/O)c2cccc([N+](=O)[O-])c2)c([N+](=O)[O-])c(N)n1,,,EC50,,H37Rv,,,>12.5 µg/mL
CCOC(=O)c1nnc(C)[nH]c1=O,,,MIC bound,,H37Rv,BACTEC,,>12.5 µg/mL
CO/C(=N\N=C\c1ccc(OC)cc1OC)c1ccncc1,,,MIC,,16PI,,,>20 µg/mL
COc1ccc(C(=O)CN2CCN(c3cc4c(cc3F)c(=O)c(C(=O)O)cn4C3CC3)CC2)cc1,,,inhibition,6.25 µg/mL,H37Rv,,,15%
NC(=O)c1cnccn1,,,MIC,,H3652 (niacin-negative),,,1024 µg/mL
C[C@@H]1CN(c2c(F)c(N)c3c(=O)c(C(=O)O)cn(C4CC4)c3c2F)C[C@H](C)N1,,,MIC,,ATCC 35827,,,0.06 µg/mL
CCOc1ccc(NC(=O)CC(C(C)=O)C(=O)Nc2cccc3ccccc23)cc1,,,inhibition,30 µg/mL,H37Rv,,,0%
CO[C@H]1/C=C/O[C@@]2(C)Oc3c(C)c(O)c4c(O)c(c(/C=N/N5CCN(C)CC5)c(O)c4c3C2=O)NC(=O)/C(C)=C\C=C\[C@H](C)[C@H](O)[C@@H](C)[C@@H](O)[C@@H](C)[C@H](OC(C)=O)[C@@H]1C,,,MIC,,CDC1551,BACTEC,,0.063 µg/mL
C[C@]1(COc2ccc(N3CCC(Oc4ccc(OC(F)(F)F)cc4)CC3)cc2)Cn2cc([N+](=O)[O-])nc2O1,,,MIC90,,36 strains (INH-resistant),,,0.013 µg/mL
CC(CCC/C=C/CCCN(C)C(=N)N)CC(C)C1OC(=O)C(C)C(O)/C=C/C(C)C(O)C(C)C(O)C(C)C(O)CCCC(O)CC2(O)OC(CC(OC(=O)CC(=O)O)CC(O)CC(O)C(C)C(O)/C=C/C=C/C1C)CC(O)C2O,,,MIC bound,,H37Rv,BACTEC,,>12.8 µg/mL
NNC(=O)c1ccncc1,,,MIC,,Isolate 6,,,4 µg/mL
CCCCCCCCCCCCCCC1=C(O)c2ncccc2C(=O)C1=O,,,MIC bound,,H37Rv,resazurin,,>6.25 µg/mL
CC[C@@H](CO)NCCN[C@@H](CC)CO,,,MIC,,Isolate 8,,,8 µg/mL
Cc1cc(N=Nc2cc(C)c(NC(=O)c3ccc(NC(=O)c4ccc(N)cc4)cc3)cc2C)ccc1N=Nc1ccc2cc(S(=O)(=O)O)cc(S(=O)(=O)O)c2c1,,,inhibition,12.5 µg/mL,H37Rv,BACTEC,,9%
CO/C(=N\N=C\c1cccc(Cl)c1)c1ccncc1,,,MIC,,H37Rv,,,>20 µg/mL
COc1ccc(/C=N/NC(=O)c2nc(C3C4CC5CC(C4)CC3C5)[nH]c2C2C3CC4CC(C3)CC2C4)cc1,,,MIC,,H37Rv,,,>6.25 µg/mL
CC(=O)NC[C@H]1CN(c2ccc(N3CCN(c4ccc([N+](=O)[O-])s4)CC3)c(F)c2)C(=O)O1,,,MIC,,M-66,,,>32 µg/mL
Cc1ccc2nc(CN(CCO)CCO)cc(=O)n2c1,,,MIC bound,,H37Rv,resazurin,,>6.25 µg/mL
CN[C@@H]1[C@H](O[C@H]2[C@H](O[C@H]3[C@H](O)[C@@H](O)[C@H](N=C(N)N)[C@@H](O)[C@@H]3N=C(N)N)O[C@@H](C)[C@]2(O)C=O)O[C@@H](CO)[C@H](O)[C@H]1O,,,MIC,,4308/95 (streptomycin-resistant),,,25–50 µg/mL
Cc1cc(C)c2c(n1)S(=O)(=O)N(CC(=O)NC1CCCCC1)/C(=C(/O)c1ccccc1)C2=O,,,MIC,,H37Rv,,,>12.5 µg/mL
CO/C(=N\N=C\c1ccc(Cl)cc1Cl)c1ccncc1,,,MIC,,16PI,,,>20 µg/mL
CCCCS(=O)(=O)Nc1ccc2[nH]c(C(=O)NCC)c(C)c2c1,,,MIC90,,H37Rv,resazurin,,6.25 µM
NNC(=O)c1cnc(C2CCCCC2)[nH]1,,,inhibition,6.25 µg/mL,H37Rv,,,54%
O=C1NC(=O)C2(CCCc3ccc([N+](=O)[O-])cc32)N1,,,inhibition,6.25 µg/mL,H37Rv,resazurin,,-6%
CCCCS(=O)(=O)Nc1ccc2[nH]c(C(=O)NC(C)C3CC3)c(C)c2c1,,,MIC90,,H37Rv,resazurin,,3.1 µM
Cn1c(=O)c2c(nc(Nc3ccc(Cl)cc3)n3c(=O)n(-c4ccccc4)c(=O)n23)n(C)c1=O,,,inhibition,12.5 µg/mL,H37Rv,BACTEC,,0%
CCCCS(=O)(=O)Nc1ccc2[nH]c(C(=O)NC3(c4ccccc4)CC3)c(C)c2c1,,,MIC90,,H37Rv,resazurin,,6.2 µM
CC1COc2c(N3CCN(C)CC3)c(F)cc3c(=O)c(C(=O)O)cn1c23,clinical isolate,,MIC,,Clinical isolate unspecified,resazurin,,0.5 µM
NC1CCN(c2nc3c(cc2F)c(=O)c(C(=O)O)cn3-c2ccc(F)cc2F)C1,,,MIC50,,DRUG-SUS,,,>8 µg/mL
CCn1cc(C(=O)O)c(=O)c2cc(F)c(N3CCN(CC(=O)c4ccc(C)cc4)CC3)cc21,,,inhibition,6.25 µg/mL,H37Rv,,,17%
C[C@@H]1CN(c2c(F)c(N)c3c(=O)c(C(=O)O)cn(C4CC4)c3c2F)C[C@H](C)N1,,,MIC,,Isolate 8,,,2 µg/mL
CC(C)(C)NC(=O)c1cccc(C(N)=O)n1,,,MIC bound,,H37Rv,resazurin,,>6.25 µg/mL
CCn1cc(C(=O)O)c(=O)c2cc(F)c(N3CCN(CC(=O)c4ccc(F)cc4)CC3)cc21,,VERO,MIC,,H37Rv,,,6.25 µg/mL
O=C(OCc1ccccc1)N1N=NC2C3CC(OCc4ccccc4)(OCc4ccccc4)C(O3)C21,,,inhibition,12.5 µg/mL,H37Rv,BACTEC,,0%
CO/C(=N\N=C\c1ccc(F)cc1)c1ccncc1,,,MIC,,6 PI,,,>20 µg/mL
CCc1nc2ccccc2n1CCCCNc1ccc(-c2ccccn2)cc1,,,MIC90,,H37Rv,turbidity / fluorescence,WT,0.55 µM
CC(C)/C=N/NC(=O)c1cnc(C2C3CC4CC(C3)CC2C4)[nH]1,,,inhibition,6.25 µg/mL,H37Rv,,,27%
CCc1nc2ccc(C)cc2n1CCCCSc1ccc(OC)cc1,,,MIC90,,H37Rv,turbidity / fluorescence,WT,9.4 µM
O=C(O)/C=C/c1cnc[nH]1,,,MIC,,H37Rv,,,>6.25 µg/mL
CCOC(=O)Nc1cc(NC(C)C(=O)Cc2ccccc2)c([N+](=O)[O-])c(N)n1,,,inhibition,12.5 µg/mL,H37Rv,,,0%
CCC1OC(=O)CC(O)C(C)C(OC2OC(C)CC(N(C)C)C2O)C(CC=O)CC(C)C(=O)/C=C\C2(C)OC2C1C,,,MIC bound,,H37Rv,BACTEC,,>12.5 µg/mL
COc1ccc(-c2cs/c(=N\NC(=O)COc3cnccn3)n2-c2ccc(Cl)cc2[N+](=O)[O-])cc1,,,MIC,,H37Rv,,,8 µg/mL
Cc1c(C(=O)NCc2ccccc2)[nH]c2ccc(NS(=O)(=O)CCCCF)cc12,,,MIC90,,H37Rv,resazurin,,3.1 µM
CC(C)c1nc(C(=O)O)c(C(C)C)[nH]1,,,MIC,,H37Rv,,,>6.25 µg/mL
CC(C)Cn1c(-c2ccc(F)cc2)cs/c1=N\NC(=O)COc1cnccn1,,,MIC,,H37Rv,,,13 µg/mL
C[C@H]1C[C@H](N)CN1c1cc2c(cc1F)c(=O)c(C(=O)O)cn2-c1ccc(F)cc1F,,,MIC,,ATCC 35820,,,1 µg/mL
CCc1nc2ccc(C)cc2n1CCCCNc1ccccc1,,,MIC90,,H37Rv,turbidity / fluorescence,QcrB M342T,8.6 µM
CCOc1ccc(-n2c(-c3ccc(C)cc3)cs/c2=N\NC(=O)COc2cnccn2)cc1,,,MIC,,H37Rv,,,3.1 µg/mL
O=C1OCCOCCOCCOCCOC(=O)c2cncc1c2,,,MIC bound,,H37Rv,BACTEC,,>12.5 µg/mL
Cc1ccc(S(=O)(=O)OCCn2sc3nc(C)cc(C)c3c2=O)cc1,,,MIC,,H37Rv,,,>12.5 µg/mL
Cc1ccc(S(=O)(=O)c2ccccc2[N+](=O)[O-])cc1,,,MIC,,H37Rv,BACTEC,,≥12.5 µg/mL
COc1cnc2ccc(=O)n(CCN3CCC(NCc4cc(Cl)c(Cl)cn4)CC3)c2c1,,,MIC,,CDC1551,resazurin,,0.04 µg/mL
CCc1nc2ccccc2n1CCCCOc1ccccc1Cl,,,fold resistance,,H37Rv,turbidity / fluorescence,Rv1339 V90M,0.8
CCN(CC)CCNc1cccc2oc3ccc(OS(=O)(=O)c4ccc(C)cc4)cc3c(=O)c12,,,inhibition,12.5 µg/mL,H37Rv,BACTEC,,99.7%
Cc1cc(C)c2c(=O)n(CO)sc2n1,,,EC50,,H37Rv,,,<12.5 µg/mL
COc1cc(C=Nc2ccc(C)c(Cl)c2)ccc1OC(=O)c1ccccc1,,,MIC bound,,H37Rv,BACTEC,,>12.5 µg/mL
CC1CN(c2cc3c(cc2F)c(=O)c(C(=O)O)cn3-c2ccc(F)cc2F)CCN1,,,MBC,,H37Rv,,,4 µg/mL
CCc1nc2ccccc2n1CCCCNc1ccc(OC)cc1,,,MIC90,,H37Rv,turbidity / fluorescence,WT,6.9 µM
Cc1cc(C)c2c(n1)S(=O)(=O)N(CCO)C2=O,,,MIC,,H37Rv,,,>12.5 µg/mL
CCOC(=O)Nc1cc(NCCc2ccc(S(N)(=O)=O)cc2)c(N)c(N)n1,,,EC50,,H37Rv,,,>12.5 µg/mL
CCOC(=O)c1ccc(NC(=O)C(CC(=O)Nc2ccc(OCC)cc2)C(C)=O)cc1,,,inhibition,30 µg/mL,H37Rv,,,0%
Cc1cc(C)c2c(=O)n(CC(N)=O)sc2n1,,,MIC,,H37Rv,,,>12.5 µg/mL
CCc1nc2ccccc2n1CCCCOc1ccc(Cl)cc1,,,fold resistance,,H37Rv,turbidity / fluorescence,Rv1339 V90M,0.9
CC(C)[C@](O)(C(=O)OCC1=CC[N+]2([O-])CC[C@@H](O)[C@@H]12)[C@H](C)O,,,MIC,,H37Rv,BACTEC,,≥12.8 µg/mL
CCOC(=O)Nc1cc2c(c(N)n1)N=C(c1ccccc1)C(C)O2,,,EC50,,H37Rv,,,<12.5 µg/mL
CCOC(=O)C(CC)Oc1cccc2c1oc1ccccc12,,,inhibition,12.5 µg/mL,H37Rv,BACTEC,,-19%
CO[C@H]1/C=C/O[C@@]2(C)Oc3c(C)c(O)c4c(O)c(c(/C=N/N5CCN(C/C=C/c6ccccc6)CC5)c(O)c4c3C2=O)NC(=O)/C(C)=C\C=C\[C@H](C)[C@H](O)[C@@H](C)[C@@H](O)[C@@H](C)[C@H](OC(C)=O)[C@@H]1C,,,MBC,,MTB14,,,0.25 µg/mL
NNC(=O)c1ccncc1,,,MIC,,INH-r,resazurin,,>100 µg/mL
CO[C@H]1/C=C/O[C@@]2(C)Oc3c(C)c(O)c4c(O)c(c(/C=N/N5CCN(C)CC5)c(O)c4c3C2=O)NC(=O)/C(C)=C\C=C\[C@H](C)[C@H](O)[C@@H](C)[C@@H](O)[C@@H](C)[C@H](OC(C)=O)[C@@H]1C,,,MIC99,,,,526Tyr,≥640 µg/mL
O=C(N/N=C/c1ccc(O)cc1O)c1ccco1,,,MIC bound,,H37Rv,BACTEC,,>12.5 µg/mL
CC(=O)C(CC(=O)Nc1cccc(C)c1)C(=O)Nc1cccc2ccccc12,,,inhibition,30 µg/mL,H37Rv,,,0%
CN1C(=O)/C(=C2\SC(=O)N(CNc3ccc(Br)cc3)C2=O)c2ccccc21,,,MIC bound,,H37Rv,BACTEC,,>12.5 µg/mL
CCOC(=O)N(c1ccccc1)c1cc(Cl)c([N+](=O)[O-])c(N)n1,,,EC50,,H37Rv,,,>12.5 µg/mL
NC(=N\N=C\c1cc(Cl)ccc1O)/C(N)=N/N=C/c1cc(Cl)ccc1O,,,MIC,,H37Rv,BACTEC,,≥12.5 µg/mL
CCn1cc(C(=O)O)c(=O)c2cc(F)c(N3CCN(CC(=O)c4ccc(OC)cc4)CC3)cc21,,,inhibition,6.25 µg/mL,H37Rv,,,24%